Columns and labels:
[1] = test system: SARS-CoV-2 Spike (S) protein treated human macrophages; assay type: cell-based
[2] = test system: SARS-CoV-2 Spike (S) protein treated human macrophages; experiment: apoptosis by caspase 3 activation in Spike protein treated macrophages; assay type: cell-based; conditions: within 2 hours of treatment

## (14S,27S)-22,33-dimethoxy-13,28-dimethyl-2,5,7,20-tetraoxa-13,28-diazaoctacyclo[25.6.2.2^16,19.1^3,10.1^21,25.0^4,8.0^31,35.0^14,39]nonatri-aconta-1(33),3(39),4(8),9,16(38),17,19(37),21,23,25(36),31,34-dodecaene [cepharanthine]
[1]
  anti-inflammatory cytokines such as IL-10: inducing
  pro-inflammatory cytokines VEGF, IL-6, IL-8, GRO, MIP-1α, MIP-1β and MMP-9: selectively inhibited
[2]
  apoptosis by activation of caspase 3: selectively induces apoptosis
